Anti-infective test results gathered from many reports (values: NIAID ChemDB through PubChem).

Inhibition is in % at the dose shown (toxicity tests: loss of growth or viability). MIC bound comes from a single tested concentration. ECn is the concentration giving n% inhibition of infection, replication or growth. MIC50, MIC90 and the like: level of inhibition, or share of isolates inhibited. ICn is the concentration giving n% inhibition. Blank or dashed fields: not listed here. Conditions beyond the fields shown may differ between rows.

structure | protein | method | endpoint | cell line | test | strain or isolate | species | dose | result
O=c1cc(-c2ccc(O)cc2-c2c(O)cc3oc(-c4ccc(O)cc4)cc(=O)c3c2O)oc2cc(O)cc(O)c12 | - | - | inhibition | - | culture | H37Rv | Mycobacterium tuberculosis | 12.5 µg/mL | 1%
O=C1NC(=O)C(Cc2c[nH]c3ccccc23)N1 | - | - | MIC | - | culture | H37Rv | Mycobacterium tuberculosis | - | >100 µg/mL
O=c1c2ccccc2c(=O)c2c1ccc1[nH]c3c(ccc4c(=O)c5ccccc5c(=O)c43)[nH]c12 | - | BACTEC | inhibition | - | culture | H37Rv | Mycobacterium tuberculosis | 12.5 µg/mL | 30%
CC(C)N(C(=S)SSC(=S)N(C(C)C)C(C)C)C(C)C | - | - | MIC | - | culture | H37Rv | Mycobacterium tuberculosis | - | >100 µg/mL
C=C1C(=O)O[C@@H](CCCCCCCCCCCCC)[C@@H]1C(=O)O | - | BACTEC | inhibition | - | culture | H37Rv | Mycobacterium tuberculosis | 128 µg/mL | 90%
O=C1CC(c2ccccc2)Oc2cc(I)ccc21 | - | - | inhibition | - | culture | - | Mycobacterium tuberculosis | 12.5 µg/mL | 9%
c1ccc2c(c1)ccc1c3ccccc3[nH]c21 | - | - | MIC | - | culture | H37Rv | Mycobacterium tuberculosis | - | >100 µg/mL
Nc1c(S(=O)(=O)[O-])cc2cc(S(=O)(=O)[O-])ccc2c1O | - | cytopathic effect | inhibition | Human embryonic lung cells | culture | TYPE 3 | Adenovirus | 10 µg/mL | 90%
Nc1ccc(S(=O)(=O)c2ccncc2)cc1 | - | - | MIC | - | culture | H37Rv | Mycobacterium tuberculosis | - | >100 µg/mL
CCCCCCCC/C=C/CCCCCCCC(=O)Nc1nnc(NCc2cccc3ccccc23)s1.CCCCCCCC/C=C/CCCCCCCC(=O)Nc1nnc(NCc2cccc3ccccc23)s1 | Polymerase | - | IC50 | - | target | - | Human cytomegalovirus | - | <25 µM
O=c1cc2[nH]c3ccccc3c(=O)n2[nH]1 | - | - | inhibition | - | culture | H37Rv | Mycobacterium tuberculosis | 6.25 µg/mL | 0%
O=C(/C=C/c1ccccc1Cl)Nc1nnc(NC2CCN(Cc3ccccc3)CC2)s1 | Polymerase | - | IC50 | - | target | - | Human cytomegalovirus | - | <25 µM
O=C1CC(c2ccccc2)Oc2c(I)cccc21 | - | - | EC50 | - | culture | H37Rv | Mycobacterium tuberculosis | - | >12.5 µg/mL
CNCCc1cccs1.Cl | - | - | MIC | - | culture | H37Rv | Mycobacterium tuberculosis | - | >1600 µg/mL
CCC(OC(=O)Nc1ccc(S(=O)(=O)NC2CCCCC2)cc1)c1ccco1 | - | BACTEC | inhibition | - | culture | H37Rv | Mycobacterium tuberculosis | 12.5 µg/mL | -13%
O=C(/C=C/c1ccccc1Br)c1ccccc1O | - | - | EC50 | - | culture | H37Rv | Mycobacterium tuberculosis | - | <12.5 µg/mL
Cc1nccn1C(/C(=N/O)c1ccccc1)c1ccccc1 | - | resazurin | inhibition | - | culture | H37Rv | Mycobacterium tuberculosis | 6.25 µg/mL | 2%
C#CC[C@@H](C(=O)N[C@H](/C=C/C(=O)OCC)C[C@@H]1CCNC1=O)n1cccc(NC(=O)c2cc(C)on2)c1=O | - | cytopathic effect / XTT | EC50 | H1-HELA | culture | Serotype 31 | Rhinovirus | - | 0.039 µM
O=C(Oc1ccc(C(=O)c2ccccc2OC(=O)c2ccccc2O)cc1)c1ccccc1O | - | - | MIC | - | culture | H37Rv | Mycobacterium tuberculosis | - | >100 µg/mL
C[C@H](Cc1ccc(O)c(O)c1)[C@@H](C)Cc1ccc(O)c(O)c1 | - | broth dilution | MIC50 | - | culture | CCC 125-2000 | Candida albicans | - | 250 µg/mL
O=[N+]([O-])c1cccc(/C=C/c2ccc3ccccc3n2)c1 | - | - | MIC | - | culture | H37Rv | Mycobacterium tuberculosis | - | >100 µg/mL
C=C1C(=O)O[C@H]2[C@H]1[C@H](OC(=O)/C(C)=C/COC(C)=O)C[C@]1(CO1)[C@@H]1C(O)[C@H]3O[C@@]3(C)[C@H]21 | - | BACTEC | MIC | - | culture | H37Rv | Mycobacterium tuberculosis | - | ≥12.5 µg/mL
CN(C)c1ccc(-c2cncc(N3CCN(c4ccccc4)CC3)n2)cc1 | UL97 kinase | - | IC50 | - | target | - | Cytomegalovirus | - | <10 µM
O=C1c2c(O)cc(O)cc2OC(c2ccc(O)cc2)C1c1c(O[C@@H]2O[C@H](CO)[C@@H](O)[C@H](O)[C@H]2O)cc(O)c2c(=O)cc(-c3ccc(O)cc3)oc12 | - | - | EC50 | - | culture | - | Mycobacterium tuberculosis | - | >12.5 µg/mL
Cc1cc(-c2ccc(N=Nc3c(S(=O)(=O)O)cc4cc(S(=O)(=O)O)cc(N)c4c3O)c(C)c2)ccc1N=Nc1c(S(=O)(=O)O)cc2cc(S(=O)(=O)O)cc(N)c2c1O | - | cytopathic effect | inhibition | Human amnion AV3 cells | culture | TYPE 3 | Adenovirus | 50 µg/mL | 0%
NNC(=O)c1cccc([N+](=O)[O-])c1 | - | BACTEC | inhibition | - | culture | H37Rv | Mycobacterium tuberculosis | 12.5 µg/mL | 12%
O=C(O)c1ccc([N+](=O)[O-])cc1Br | - | - | MIC | - | culture | H37Rv | Mycobacterium tuberculosis | - | >100 µg/mL
Fc1ccc(NC(=S)S)cc1 | - | BACTEC | inhibition | - | culture | H37Rv | Mycobacterium tuberculosis | 12.5 µg/mL | 76%
CCOC(=O)c1c2c3c(c(Nc4ccc(N(C)C)cc4)ccc3n(C)c1=O)C(=O)c1ccccc1-2 | - | - | MIC | - | culture | H37Rv | Mycobacterium tuberculosis | - | >100 µg/mL
O=c1cc(-c2ccccc2)oc2ccc(-c3ccccc3-c3cc(=O)c4ccccc4o3)cc12 | - | - | EC50 | - | culture | - | Mycobacterium tuberculosis | - | >12.5 µg/mL
Nc1ccccc1S(=O)(=O)O | - | cytopathic effect | inhibition | Human embryonic lung cells | culture | TYPE 3 | Adenovirus | 5 µg/mL | 0%
O=C(Nc1nnc(NCCNc2ccccc2)s1)c1ccc([N+](=O)[O-])o1 | Polymerase | - | IC50 | - | target | - | Human cytomegalovirus | - | >25 µM
O=S(=O)(O)c1cc(O)c2c(O)c(N=Nc3ccccc3)c(S(=O)(=O)O)cc2c1 | - | cytopathic effect | inhibition | Human amnion AV3 cells | culture | TYPE 3 | Adenovirus | 50 µg/mL | 20%
COc1cc(Cc2ccc(N)c(OC)c2)ccc1N | - | - | MIC | - | culture | H37Rv | Mycobacterium tuberculosis | - | >100 µg/mL
O=C(Nc1nnc(NCCSc2ccccc2)s1)c1ccc2c(c1)C(=O)OC2=O | Polymerase | - | IC50 | - | target | - | Human cytomegalovirus | - | <25 µM
CC(=O)Nc1ccccc1 | - | - | MIC | - | culture | H37Rv | Mycobacterium tuberculosis | - | >100 µg/mL
CCO/N=C/c1ccc(OCCC2CCN(c3ccc(C)nn3)CC2)cc1 | - | neutral red | EC50 | KB | culture | 121564 (ICAM-1 receptor group 86) | Rhinovirus | - | 0.041 µM
COc1ccc(/C=C/C(=O)c2c(O)cccc2OC)cc1 | - | - | inhibition | - | culture | H37Rv | Mycobacterium tuberculosis | 12.5 µg/mL | 75%
COc1cc(OC)c2[nH]c3c(c(=O)c2c1)C(=O)c1[nH]c2c(OC)cc(OC)cc2c(=O)c1C3=O | - | BACTEC | MIC bound | - | culture | H37Rv | Mycobacterium tuberculosis | - | >12.5 µg/mL
O=S(=O)(O)c1cc(O)c2c(O)cc(S(=O)(=O)O)cc2c1 | - | cytopathic effect | inhibition | Human conjunctiva cells | culture | - | Herpes simplex virus | 50 µg/mL | 100%
S=C=Nc1ccc(Cl)cc1 | - | - | MIC | - | culture | H37Rv | Mycobacterium tuberculosis | - | >100 µg/mL
Fc1ccc(N2CCN(c3cncc(-c4cc5ccccc5s4)n3)CC2)c(F)c1 | UL97 kinase | - | IC50 | - | target | - | Cytomegalovirus | - | <10 µM
COC(=O)c1cc(=O)c2c(ccc3oc(=O)ccc32)[nH]1 | - | BACTEC | inhibition | - | culture | H37Rv | Mycobacterium tuberculosis | 12.5 µg/mL | -16%
O=C(O)c1ccccc1N=Nc1ccc(NCCO)cc1 | - | - | MIC | - | culture | H37Rv | Mycobacterium tuberculosis | - | 100 µg/mL
CCOC(=O)N1CCN(C(=S)N/N=C(\C)c2cnccn2)CC1 | - | BACTEC | MIC | - | culture | H37Rv | Mycobacterium tuberculosis | - | ≥12.5 µg/mL
Oc1cccc(-c2cncc(N3CCN(c4ccncc4)CC3)n2)c1 | UL97 kinase | - | inhibition | - | target | - | Cytomegalovirus | 1 µM | <50%
c1cc[c]([Sn]([c]2ccccc2)([c]2ccccc2)[c]2ccccc2)cc1 | - | - | MIC | - | culture | H37Rv | Mycobacterium tuberculosis | - | >100 µg/mL
O=C1C(c2[nH]c3ccc(S(=O)(=O)O)cc3c2O)=Nc2ccc(S(=O)(=O)O)cc21 | - | cytopathic effect | inhibition | Human embryonic lung cells | culture | TYPE 3 | Adenovirus | 5 µg/mL | 0%
Cc1cccc(-c2cncc(N3CCN(c4ccncc4)CC3)n2)c1 | UL97 kinase | - | inhibition | - | target | - | Cytomegalovirus | 1 µM | <50%
COc1cc2c(c(OC)c1OC)-c1c(cc3c(c1OC)OCO3)CC(C)C(C)(O)C2OC(=O)c1ccccc1 | - | BACTEC | MIC | - | culture | H37Rv | Mycobacterium tuberculosis | - | ≥12.5 µg/mL
O=C(/C=C/c1ccccc1)Nc1nnc(NCCc2c[nH]c3ccccc23)s1 | Polymerase | - | IC50 | - | target | - | Human cytomegalovirus | - | <25 µM
O=C1c2ccccc2C(=O)c2cc3cc(Cl)ccc3cc21 | - | - | MIC | - | culture | H37Rv | Mycobacterium tuberculosis | - | >100 µg/mL
Fc1ccc(-c2cncc(N3CCN(c4ccc(Cl)c(Cl)c4)CC3)n2)cc1 | UL97 kinase | - | inhibition | - | target | - | Cytomegalovirus | 10 µM | >15%
CCCCCCCC(=O)N1[C@H]2[C@@H]1CN1C3=C(C(=O)C(N)=C(C)C3=O)[C@@H](COC(N)=O)[C@@]21OC | - | - | MIC | - | culture | EMB-R | Mycobacterium tuberculosis | - | 0.4 µg/mL
NC(=O)Nc1ccc2c(c1)Cc1ccccc1-2 | - | - | MIC | - | culture | H37Rv | Mycobacterium tuberculosis | - | >100 µg/mL
COC(C(=O)C1=C2Oc3c4c(cc(O)c3C(=O)C2C2=C(CCCC2)C1=O)OC(C)(C)C=C4)C(C)CCC=C(C)C | - | BACTEC | inhibition | - | culture | H37Rv | Mycobacterium tuberculosis | 128 µg/mL | 92%
NS(=O)(=O)c1ccc(CCNc2nnc(NC(=O)c3ccc4c(c3)C(=O)OC4=O)s2)cc1 | Polymerase | - | IC50 | - | target | - | Human cytomegalovirus | - | <25 µM
COC1[C@H](O)[C@@H](O)C(O)[C@H](O)[C@H]1O | - | BACTEC | inhibition | - | culture | H37Rv | Mycobacterium tuberculosis | 12.5 µg/mL | -9%
CC[N+](CC)(CC)CCOC(=O)Nc1ccccc1.[I-] | - | - | MIC | - | culture | H37Rv | Mycobacterium tuberculosis | - | >100 µg/mL
N#CCC(=O)N/N=C/c1ccc([N+](=O)[O-])o1 | - | BACTEC | inhibition | - | culture | H37Rv | Mycobacterium tuberculosis | 12.5 µg/mL | 88%
Cc1ccc(N2CCN(c3cncc(-c4ccc(F)cc4)n3)CC2)cc1 | UL97 kinase | - | IC50 | - | target | - | Cytomegalovirus | - | <10 µM
CC1C(=O)CC2C(C)(C)CCCC2(C)C1(O)CCc1ccoc1 | - | BACTEC | inhibition | - | culture | H37Rv | Mycobacterium tuberculosis | 12.5 µg/mL | 4%
CCOC(=O)C(=CNc1cccc(Cl)c1)C(=O)OCC | - | - | MIC | - | culture | H37Rv | Mycobacterium tuberculosis | - | >100 µg/mL
O=c1oc2ccccc2c(O)c1C(C/C(=N/O)c1ccccc1)c1ccccc1 | - | BACTEC | inhibition | - | culture | H37Rv | Mycobacterium tuberculosis | 12.5 µg/mL | 0%
CC(=O)Nc1ccc(C)cc1C | - | - | MIC | - | culture | H37Rv | Mycobacterium tuberculosis | - | >100 µg/mL
O=C(O)CCCn1nnc2c(=O)[nH][nH]c(=O)c21 | - | BACTEC | MIC bound | - | culture | H37Rv | Mycobacterium tuberculosis | - | >12.5 µg/mL
Fc1ccc(N2CCCCC2)c(NC(=S)c2ccncc2)c1 | HER4 | kinase activity | inhibition | - | host protein | - | - | 10 µM | -1%
CCCCCCCCCCC1SCC(=O)N1c1nncs1 | - | BACTEC | MIC bound | - | culture | H37Rv | Mycobacterium tuberculosis | - | >12.5 µg/mL
CN(C)c1ccc(C(=O)c2ccc(N(C)C)cc2)cc1 | - | - | MIC | - | culture | H37Rv | Mycobacterium tuberculosis | - | 50 µg/mL

A second listing of 7 rows from above:

structure	protein	method	endpoint	cell line	test	strain or isolate	species	dose	result
c1cc[c]([Sn]([c]2ccccc2)([c]2ccccc2)[c]2ccccc2)cc1	-	-	MIC	-	culture	H37Rv	Mycobacterium tuberculosis	-	>100 µg/mL
O=C(/C=C/c1ccccc1)Nc1nnc(NCCc2c[nH]c3ccccc23)s1	Polymerase	-	IC50	-	target	-	Human cytomegalovirus	-	<25 µM
CN(C)c1ccc(-c2cncc(N3CCN(c4ccccc4)CC3)n2)cc1	UL97 kinase	-	IC50	-	target	-	Cytomegalovirus	-	<10 µM
O=c1cc(-c2ccc(O)cc2-c2c(O)cc3oc(-c4ccc(O)cc4)cc(=O)c3c2O)oc2cc(O)cc(O)c12	-	-	inhibition	-	culture	H37Rv	Mycobacterium tuberculosis	12.5 µg/mL	1%
COc1cc(Cc2ccc(N)c(OC)c2)ccc1N	-	-	MIC	-	culture	H37Rv	Mycobacterium tuberculosis	-	>100 µg/mL
O=c1oc2ccccc2c(O)c1C(C/C(=N/O)c1ccccc1)c1ccccc1	-	BACTEC	inhibition	-	culture	H37Rv	Mycobacterium tuberculosis	12.5 µg/mL	0%
O=C(O)CCCn1nnc2c(=O)[nH][nH]c(=O)c21	-	BACTEC	MIC bound	-	culture	H37Rv	Mycobacterium tuberculosis	-	>12.5 µg/mL